Values quoted from earlier work as cited in patent US20020035738A1, “Plant protection method” (priority 1996, published 2002).

Test system: Phytophthora infestans
Conditions: in vivo; cited from earlier work

CC/C=C\C[C@H]1C(=O)CC[C@@H]1CC(=O)O [jasmonic acid]
resistance against the late blight fungus Phytophthora infestans: induces resistance
